Source: PubChem BioAssay AID1259414 (Drosophila RNAi Screening Center, 2018)

Assay: 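Host factors increasing or decreasing Wolbachia levels in cultured fly cells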 (primary screen)
Cell system: Drosophila JW18 cells infected with Wolbachia
Knock-down reagent: long dsRNA against Drosophila genes, 0.25 µg dsRNA per well of a 384-well plate
Timing: 5 days
Treatment: cells persistently infected with Wolbachia before knock-down; no added drug
Measured: 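Imaged fluorescence in situ signal for Wolbachia 23S rRNA per DAPI-counted host cell, given as a robust z-score within each plate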
Direction: Wolbachia per cell robust z: higher = more Wolbachia per host cell than the plate typical
Active means: 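Active if absolute robust z reaches 1.5 in two or more of three replicates, leaving out multi- or no-target dsRNAs, genes unexpressed in JW18 and A1 wells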
In all, the deposit lists about 24,000 reagents; shown is a random part of those with a known target gene and a result. Of all reagents, about 1,210 (5%) were called active. 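Inactive calls also include excluded dsRNAs with several or no targets, genes unexpressed in JW18, and well A1, regardless of score.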 A plus sign joins genes that one reagent is predicted to hit.

With knock-down of ND-13A [DRSC03110], the record shows Wolbachia per cell robust z, rep 1 = -0.928; Wolbachia per cell robust z, rep 2 = -0.773; Wolbachia per cell robust z, rep 3 = -0.195; inactive.
Silencing of ND-13A [DRSC29397] came out at: Wolbachia per cell robust z, rep 1 = -0.0262; Wolbachia per cell robust z, rep 2 = -0.249; Wolbachia per cell robust z, rep 3 = -0.68; inactive.
bonsai [DRSC04453] gave Wolbachia per cell robust z, rep 1 = -1.61; Wolbachia per cell robust z, rep 2 = 0.203; Wolbachia per cell robust z, rep 3 = -0.0623; inactive.
For bonsai [DRSC24153] the deposit lists Wolbachia per cell robust z, rep 1 = 0.744; Wolbachia per cell robust z, rep 2 = -0.0818; Wolbachia per cell robust z, rep 3 = 0.532; inactive.
After knock-down of Mettl14 [DRSC03073] the results were Wolbachia per cell robust z, rep 1 = 0.131; Wolbachia per cell robust z, rep 2 = -0.996; Wolbachia per cell robust z, rep 3 = -0.781; inactive.
Knock-down of CG4617 [DRSC18377] gave: Wolbachia per cell robust z, rep 1 = -1.01; Wolbachia per cell robust z, rep 2 = 0.133; Wolbachia per cell robust z, rep 3 = -5.1; inactive.
Knock-down of CG4617 [DRSC23828] came out at: Wolbachia per cell robust z, rep 1 = -1.73; Wolbachia per cell robust z, rep 2 = -6.66; Wolbachia per cell robust z, rep 3 = -3.19; active.

Entries listed so far with an active call:
CG4617 [DRSC23828]: Wolbachia per cell robust z, rep 1 = -1.73; Wolbachia per cell robust z, rep 2 = -6.66; Wolbachia per cell robust z, rep 3 = -3.19; activity call = active

The listing continues.
Hn [DRSC11184] showed Wolbachia per cell robust z, rep 1 = -8.08; Wolbachia per cell robust z, rep 2 = -0.266; Wolbachia per cell robust z, rep 3 = -0.678; inactive.
After knock-down of nur [DRSC01342], the record shows Wolbachia per cell robust z, rep 1 = 1.46; Wolbachia per cell robust z, rep 2 = 0.964; Wolbachia per cell robust z, rep 3 = 0.252; inactive.
After knock-down of nur [DRSC29629], the screen gave Wolbachia per cell robust z, rep 1 = 0.337; Wolbachia per cell robust z, rep 2 = 1.04; Wolbachia per cell robust z, rep 3 = -0.524; inactive.
Against MED7 [DRSC16059], the values are Wolbachia per cell robust z, rep 1 = 0.768; Wolbachia per cell robust z, rep 2 = 0.774; Wolbachia per cell robust z, rep 3 = 1.36; inactive.
MED7 [DRSC29232] scored Wolbachia per cell robust z, rep 1 = 2.15; Wolbachia per cell robust z, rep 2 = 0.738; Wolbachia per cell robust z, rep 3 = 1.24; inactive.
With knock-down of CG17450 + CG32819 + CG32820 [DRSC27791] the results were Wolbachia per cell robust z, rep 1 = -1.94; Wolbachia per cell robust z, rep 2 = 0.309; Wolbachia per cell robust z, rep 3 = 0.198; inactive.
CG3520 [DRSC04383] gave Wolbachia per cell robust z, rep 1 = -0.524; Wolbachia per cell robust z, rep 2 = -0.431; Wolbachia per cell robust z, rep 3 = -0.00373; inactive.
With knock-down of Reps [DRSC02940] the results were Wolbachia per cell robust z, rep 1 = -1.05; Wolbachia per cell robust z, rep 2 = -8.24; Wolbachia per cell robust z, rep 3 = -0.353; inactive.
CG11286 [DRSC14293] gave Wolbachia per cell robust z, rep 1 = -1.51; Wolbachia per cell robust z, rep 2 = 0.703; Wolbachia per cell robust z, rep 3 = 0.463; inactive.
